Measured values reported in publication PMC12077208 (mBio, 2025).

System: NTF2L domain of G3BP1
Assay: Single-particle cryo-EM structure of the CHIKV-43–NTF2L complex
Set-up: species or system human

CC[C@H](C)[C@H](NC(=O)[C@H](CCC(=O)O)NC(=O)CNC(=O)[C@H](CC(=O)O)NC(=O)[C@H](CC(N)=O)NC(=O)[C@H](Cc1ccccc1)NC(=O)[C@H](CC(=O)O)NC(=O)CNC(=O)[C@H](Cc1ccccc1)NC(=O)[C@@H](NC(=O)[C@@H](NC(=O)[C@@H]1CCCN1C(=O)[C@H](Cc1ccccc1)NC(=O)[C@@H](NC(=O)[C@H](CCC(=O)O)NC(=O)[C@H](CO)NC(=O)CNC(=O)[C@H](CC(C)C)NC(=O)[C@@H]1CCCN1C(=O)CN)[C@@H](C)O)[C@@H](C)CC)[C@@H](C)O)C(=O)N[C@@H](CCC(=O)O)C(=O)N[C@@H](CO)C(=O)N[C@@H](CC(C)C)C(=O)N[C@@H](CO)C(=O)N[C@@H](CO)C(=O)N[C@@H](CCC(=O)O)C(=O)N[C@@H](CC(C)C)C(=O)N[C@@H](CC(C)C)C(=O)N[C@H](C(=O)N[C@@H](Cc1ccccc1)C(=O)NCC(=O)N[C@@H](CC(=O)O)C(=O)N[C@@H](Cc1ccccc1)C(=O)N[C@@H](CC(C)C)C(=O)N1CCC[C@H]1C(=O)NCC(=O)N[C@@H](CCC(=O)O)C(=O)N[C@H](C(=O)N[C@@H](CC(=O)O)C(=O)N[C@@H](CC(=O)O)C(=O)N[C@@H](CC(C)C)C(=O)N[C@H](C(=O)N[C@@H](CC(=O)O)C(=O)N[C@@H](CO)C(=O)N[C@@H](CC(=O)O)C(=O)N[C@@H](Cc1c[nH]c2ccccc12)C(=O)N[C@@H](CO)C(=O)N[C@H](C(=O)N[C@@H](Cc1c[nH]cn1)C(=O)N[C@@H](Cc1c[nH]cn1)C(=O)N[C@@H](Cc1c[nH]cn1)C(=O)N[C@@H](Cc1c[nH]cn1)C(=O)N[C@@H](Cc1c[nH]cn1)C(=O)N[C@@H](Cc1c[nH]cn1)C(=O)O)[C@@H](C)O)[C@@H](C)O)C(C)C)[C@@H](C)O [CHIKV-43]
proportion of total particles (Conformation I of the CHIKV-43–NTF2L complex): 49.1%
proportion of total particles (Conformation II of the CHIKV-43–NTF2L complex): 32.9%
proportion of total particles (Conformation III of the CHIKV-43–NTF2L complex): 18.0%
composition of the complex in the final cryo-EM model (cryo-EM, approximately 2.7 Å resolution): eight CHIKV-43 peptides and eight NTF2L homodimers
